Kd data for two substances are collected here from PMC11389363, “Structural characteristics of BtKY72 RBD bound to bat ACE2 reveal multiple key residues affecting ACE2 usage of sarbecoviruses” (2024).

As a reminder, the Kd is the free concentration of one partner at which half of the binding sites on the other are occupied at equilibrium, for simple one-to-one binding. A high value points to weaker binding.

Common to all, as to assay: SPR
A general note: In SPR one partner is held on a chip, and binding of the other changes the refractive index at the surface.

The target in assay [1] is greater horseshoe bat (Rhinolophus ferrumequinum) ACE2, mFc-fused, greater horseshoe bat (Rhinolophus ferrumequinum).
For assay [2], the target named is T1, intermediate horseshoe bat (Rhinolophus affinis) ACE2, mFc-fused, intermediate horseshoe bat (Rhinolophus affinis).
T1 sequence: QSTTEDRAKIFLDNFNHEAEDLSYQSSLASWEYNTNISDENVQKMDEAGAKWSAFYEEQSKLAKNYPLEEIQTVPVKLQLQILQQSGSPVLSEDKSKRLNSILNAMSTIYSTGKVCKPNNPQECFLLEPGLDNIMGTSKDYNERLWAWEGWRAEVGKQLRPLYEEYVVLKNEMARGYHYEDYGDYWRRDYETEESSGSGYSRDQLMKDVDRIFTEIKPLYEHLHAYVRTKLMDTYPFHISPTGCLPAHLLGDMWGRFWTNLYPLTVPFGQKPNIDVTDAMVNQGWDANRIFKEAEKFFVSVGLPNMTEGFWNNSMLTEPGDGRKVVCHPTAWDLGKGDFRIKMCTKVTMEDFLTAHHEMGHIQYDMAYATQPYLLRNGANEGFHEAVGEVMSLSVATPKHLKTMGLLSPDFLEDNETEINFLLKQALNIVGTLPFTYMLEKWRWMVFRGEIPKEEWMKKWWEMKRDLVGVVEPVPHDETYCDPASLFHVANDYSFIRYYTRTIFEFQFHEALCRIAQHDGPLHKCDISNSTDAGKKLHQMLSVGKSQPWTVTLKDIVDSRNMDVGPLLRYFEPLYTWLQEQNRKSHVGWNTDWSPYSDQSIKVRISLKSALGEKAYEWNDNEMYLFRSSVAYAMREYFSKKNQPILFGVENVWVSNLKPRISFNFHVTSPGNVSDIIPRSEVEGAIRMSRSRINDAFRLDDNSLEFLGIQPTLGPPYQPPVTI

For assay [3], the target named is alpaca ACE2, mFc-fused, alpaca.
For assay [4], the target named is lander’s horseshoe bat ACE2, mouse Fc (mFc)-fused (lander’s horseshoe bat).

With BtKY72 RBD, the equilibrium dissociation constant (Kd) in assay [1] stood at 7.19 µM; in assay [2] it was 3.06 µM; in assay [3], 76.7 µM.

With BtKY72 RBD (domain or fragment), the Kd in assay [4] stood at 1.6 µM.
